Anti-infective test results gathered from many reports (values: NIAID ChemDB through PubChem).

All rows: toxicity to cultured cells; cells: MT-4; measure: CC50

CCn: concentration that lowers growth or viability of the cells by n%. An empty or dashed field is not shown. Conditions beyond the fields shown may differ between rows.

Nc1ccn([C@@H]2O[C@H](CO)C[C@@H]2F)c(=O)n1 ; method: MTT ; value: 127 µg/mL
COc1ccc2nc3cc(Cl)ccc3c(NC[C@@H]3CCCN4CCCC[C@H]34)c2c1 ; method: MTT ; value: 0.5 µM
Cc1cn([C@H]2C[C@H](N=[N+]=[N-])[C@@H](CO)O2)c(=O)[nH]c1=O ; method: MTT ; value: 3.7 µM
O=c1ccn([C@H]2CC[C@@H](CO)O2)c(=O)[nH]1 ; value: >250 µM
O=C1c2cccn2-c2ccc(Cl)cc2S(=O)(=O)N1c1ccc(Cl)cc1 ; value: 30 µM
CCCCCCCCCC(=O)O[C@@]12[C@H](OC(OC)OCC)[C@@H](C)[C@@]3(O)[C@@H](C=C(CO)C[C@]4(O)C(=O)C(C)=C[C@@H]34)[C@@H]1C2(C)C ; method: MTT ; value: 3.3 µg/mL
S=C(NCCN1CCNCC1)Nc1ccc(Br)cn1 ; method: MTT ; value: >100 µM
CCOP(=O)(N[C@@H](C)C(=O)OC)OC[C@H]1O[C@@H](n2cc(C)c(=O)[nH]c2=O)C[C@@H]1N=[N+]=[N-] ; method: MTT ; value: >227 µg/mL
CC(C)(C)NC(=O)[C@@H]1C[C@@H]2CCCC[C@@H]2CN1C[C@@H](OC(=O)[C@H](Cc1ccccc1)NC(=O)OC(C)(C)C)[C@H](Cc1ccccc1)NC(=O)[C@H](CC(N)=O)NC(=O)c1ccc2ccccc2n1 ; method: MTT ; value: >100 µM
O=C(NCC#Cc1cn([C@H]2C=C[C@@H](CO)O2)c(=O)[nH]c1=O)C(F)(F)F ; method: MTT ; value: 37 µM
COc1ccc2nc3cc(Cl)ccc3c(NCCCN3CCOCC3)c2c1 ; method: MTT ; value: 1.9 µM
CCCCCCCCCC(=O)O[C@@]12[C@H](OCOC)[C@@H](C)[C@@]3(O)[C@@H](C=C(COC)C[C@]4(O)C(=O)C(C)=C[C@@H]34)[C@@H]1C2(C)C ; method: MTT ; value: 4 µg/mL
c1cc(CN2CCCNCCNCCCNCC2)ccc1CNCCCN1CCOCC1 ; method: MTT ; value: >25 µg/mL
CC(C)(C)NC(=O)[C@@H]1C[C@@H]2CCCC[C@@H]2CN1C[C@@H](OC(=O)COc1ccc(C[C@H](N)C(=O)O)cc1)[C@H](Cc1ccccc1)NC(=O)[C@H](CC(N)=O)NC(=O)c1ccc2ccccc2n1 ; method: MTT ; value: >100 µM
Cc1c(Cc2c(Cl)cccc2Cl)nc(SCc2ccc3c(c2)C(=O)c2ccccc2C3=O)[nH]c1=O ; method: MTT ; value: >48 µM
CCCCCCCCCCCC(=O)O[C@@H]1[C@@H](C)[C@@]2(O)[C@@H](C=C(COC(C)=O)C[C@@]3(O)C(=O)C(C)=C[C@@H]23)[C@@H]2C(C)(C)[C@]12OC(C)=O ; value: >1000 µg/mL
Cc1ccnc2c1NC(=O)c1cccnc1N2C1CC1 ; value: >200 µM
CCN1C(=O)N(Cc2cccc(Cl)c2)S(=O)(=O)c2cscc21 ; value: 498 µM
Cc1cn([C@H]2C[C@H](N=[N+]=[N-])[C@@H](CO)O2)c(=O)[nH]c1=O ; method: MTT ; value: >1 µM
CS(=O)(=O)N1CCC(NC(=O)c2cc(O)c(O)c(O)c2)CC1 ; method: MTT ; value: 42.4 µM
OC[C@H]1N[C@H](CO)[C@@H](O)[C@@H]1O ; method: MTT ; value: >250 µg/mL
CC(C)(C)NC(=O)[C@@H]1C[C@@H]2CCCC[C@@H]2CN1C[C@@H](OC(=O)CCCCOc1ccc(C[C@H](N)C(=O)O)cc1)[C@H](Cc1ccccc1)NC(=O)[C@H](CC(N)=O)NC(=O)c1ccc2ccccc2n1 ; method: MTT ; value: >100 µM
CCOc1ccc(CSc2nc(Cc3c(Cl)cccc3Cl)c(C)c(=O)[nH]2)cc1 ; method: MTT ; value: >58 µM
CCCCCCCCCC(=O)O[C@@]12[C@H](OCC)[C@@H](C)[C@@]3(O)[C@@H](C=C(CO)C[C@]4(O)C(=O)C(C)=C[C@@H]34)[C@@H]1C2(C)C ; method: MTT ; value: 3.3 µg/mL
CC(=O)O[C@@H]1[C@H](OC(=O)C23CCC(C)(C(=O)O2)C3(C)C)c2c(ccc3c(=O)cc(-c4ccccc4)oc23)OC1(C)C ; value: 6.25 µM
CC(=O)O[C@@]12[C@H](O)[C@@H](C)[C@@]3(O)[C@@H](C=C(CO)C[C@@]4(O)C(=O)C(C)=C[C@@H]34)[C@@H]1C2(C)C ; value: >1000 µg/mL
CC(C)(C)c1ccc(S(=O)(=O)N2CCC(NC(=O)c3cc(O)c(O)c(O)c3)CC2)cc1 ; method: MTT ; value: 131 µM
Nc1ccn([C@H]2CC[C@@H](CO)O2)c(=O)n1 ; value: 9.1 µM
Cc1cn([C@H]2C[C@H](N=[N+]=[N-])[C@@H](CO)O2)c(=O)[nH]c1=O ; value: 6 µM
CC(C)(C)NC(=O)[C@@H]1C[C@@H]2CCCC[C@@H]2CN1C[C@@H](O)[C@H](Cc1ccccc1)NC(=O)[C@H](CC(N)=O)NC(=O)c1ccc2ccccc2n1 ; method: MTT ; value: >100 µM
O=c1[nH]c(=O)n([C@H]2C=C[C@@H](CO)O2)cc1C#CCCCCO ; method: MTT ; value: 70 µM
Cc1cn([C@H]2C=C[C@@H](COC(=O)CNC(=O)CCC(=O)N3CCN(CCNC(=S)Nc4ccc(Br)cn4)CC3)O2)c(=O)[nH]c1=O ; method: MTT ; value: >100 µM
CCC(CO)Nc1c2ccc(Cl)cc2nc2ccc(OC)cc12 ; method: MTT ; value: 9.6 µM
CC1(C)Oc2ccc3ccc(=O)oc3c2[C@@H](OC(=O)C23CCC(C)(C(=O)O2)C3(C)C)[C@H]1OC(=O)C12CCC(C)(C(=O)O1)C2(C)C ; value: >16.1 µM
Cc1cn([C@H]2CC[C@@H](CO)O2)c(=O)[nH]c1=O ; value: >125 µM
COc1ccc2nc3cc(Cl)ccc3c(N3CCCC(O)C3)c2c1 ; method: MTT ; value: 6.2 µM
CC(=O)O[C@@]12[C@H](O)[C@@H](C)[C@]3(O)[C@@H]4C=C(C)C(=O)[C@@H]4CC(CO)=C[C@H]3[C@@H]1C2(C)C ; value: >1000 µg/mL
O=C(O)P(=O)(O)O ; method: MTT ; value: 188 µg/mL
c1cc(CN2CCNCCNCCNCC2)cc(CN2CCNCCNCCNCC2)c1 ; value: 2.3 µM
CCCCCCCCCCCC(=O)O[C@@]12[C@H](OC(C)=O)[C@@H](C)[C@@]3(O)[C@@H](C=C(CO)C[C@]4(O)C(=O)C(C)=C[C@@H]34)[C@@H]1C2(C)C ; value: >500 µg/mL
CCc1cc(=O)c2cc(C(C)(C)C)c3c(c2o1)[C@@H](OC(=O)C12CCC(C)(C(=O)O1)C2(C)C)[C@@H](OC(=O)C12CCC(C)(C(=O)O1)C2(C)C)C(C)(C)O3 ; value: >14.15 µM
O=C(NC1CCNCC1)c1cc(O)c(O)c(O)c1 ; method: MTT ; value: 42.1 µM
C=CCN1C(=O)c2cccn2-c2ccc(Cl)cc2S1(=O)=O ; value: >200 µM
O=C(CCC(=O)N1CCN(CCNC(=S)Nc2ccc(Br)cn2)CC1)NCC(=O)OC[C@@H]1CC[C@H](n2ccc(=O)[nH]c2=O)O1 ; method: MTT ; value: >100 µM
Cc1cc(C)cc(S(=O)(=O)N2CCC(NC(=O)c3cc(O)c(O)c(O)c3)CC2)c1 ; method: MTT ; value: 74 µM
Cc1c(Cc2c(Cl)cccc2Cl)nc(SCc2ccc(F)cc2)[nH]c1=O ; method: MTT ; value: >61 µM
COc1ccc2nc3cc(Cl)ccc3c(Nc3cccnc3)c2c1 ; method: MTT ; value: 9 µM
Cc1cn([C@H]2C[C@H](N=[N+]=[N-])[C@@H](CO)O2)c(=O)[nH]c1=O ; value: >37.5 µM
O=S1(=O)NC(c2ccccc2)c2cccn2-c2ccc(Cl)cc21 ; value: ≥200 µM
C=C(C)[C@@H]1CC[C@]2(C(=O)OC)CC[C@]3(C)C(CC[C@@H]4[C@@]5(C)C[C@@H](F)[C@H](OC(=O)CC(C)(C)C(=O)O)C(C)(C)[C@@H]5CC[C@]43C)[C@@H]12 ; method: ATP / luminescence ; value: >16 µM
CO[C@]12CC(COC(C)=O)=C[C@H]3[C@@H]4C(C)(C)[C@]4(OC(C)=O)[C@H](OC(C)=O)[C@@H](C)[C@]3(O)[C@@H]1C=C(C)C2=O ; value: >125 µg/mL
COc1ccc2nc3cc(Cl)ccc3c(NCCCO)c2c1 ; method: MTT ; value: 59 µM
Nc1ccn([C@H]2C=C[C@@H](CO)O2)c(=O)n1 ; value: 7.9 µM
CCN1C(=O)c2cccn2-c2ccc(Cl)cc2S1(=O)=O ; value: ≥200 µM
CCN1C(=O)N(Cc2ccccc2Cl)S(=O)(=O)c2cscc21 ; value: 540 µM
CCN1C(=O)C(C)N(CC=C(C)C)S(=O)(=O)c2cc(Cl)ccc21 ; value: 62 µM
COc1ccc(Cc2nccc3cc(OC)c(OC)cc23)cc1OC ; method: MTT ; value: 2.7 µg/mL
O=C(NC1CCN(S(=O)(=O)c2ccccc2)CC1)c1cc(O)c(O)c(O)c1 ; method: MTT ; value: 127.8 µM
CCN1C(=O)N(Cc2ccccc2)S(=O)(=O)c2cscc21 ; value: 512 µM

8 of the rows above, restated:

compound,method,value
Cc1cc(C)cc(S(=O)(=O)N2CCC(NC(=O)c3cc(O)c(O)c(O)c3)CC2)c1,MTT,74 µM
O=C(NC1CCNCC1)c1cc(O)c(O)c(O)c1,MTT,42.1 µM
CC(C)(C)c1ccc(S(=O)(=O)N2CCC(NC(=O)c3cc(O)c(O)c(O)c3)CC2)cc1,MTT,131 µM
COc1ccc2nc3cc(Cl)ccc3c(N3CCCC(O)C3)c2c1,MTT,6.2 µM
Cc1cn([C@H]2CC[C@@H](CO)O2)c(=O)[nH]c1=O,,>125 µM
CCN1C(=O)c2cccn2-c2ccc(Cl)cc2S1(=O)=O,,≥200 µM
Cc1cn([C@H]2C[C@H](N=[N+]=[N-])[C@@H](CO)O2)c(=O)[nH]c1=O,MTT,>1 µM
OC[C@H]1N[C@H](CO)[C@@H](O)[C@@H]1O,MTT,>250 µg/mL